Reference: patent EP2742937A1, “Compositions for use in the treatment of bacterial infections” (LIONEX Diagnostics and Therapeutics GmbH, priority 2012, dated 2014)

System: L929 cell line
Experiment: MTT cell proliferation assay (in vitro toxicity)
Assay type: cell-based, mouse
Conditions: IC50 from MTT assay divided by in vitro MIC (M. tuberculosis H37Rv)

CCCC(C)=CC=C(C)C(=O)c1c(O)cc(C(C)CCC=CNC(=O)OC)oc1=O (stereo not shown) [Myxopyronin A]
In vitro toxicity with L929 cell line SI: >16 | In vitro toxicity with L929 cell line SI (listed as Myxopyronin): more than 16 | In vitro toxicity with L929 cell line SI (listed as myxopyronin A): greater than 16

C/C=C/C/C=C(\C)C(O)CC/C(C)=C/C=C(\C)C(=O)c1c(O)cc([C@H](C)CC/C=C/NC(=O)OC)oc1=O (stereo partly shown) [Corallopyronin]
In vitro toxicity with L929 cell line SI: 2
